## In-gel DMS probing of monomeric and dimeric HIV-1 RNA

Reference: Ye et al. 2022, doi:10.1038/s41594-022-00746-2.

The 5' region of HIV-1 NL4-3 RNA (positions 1-437):
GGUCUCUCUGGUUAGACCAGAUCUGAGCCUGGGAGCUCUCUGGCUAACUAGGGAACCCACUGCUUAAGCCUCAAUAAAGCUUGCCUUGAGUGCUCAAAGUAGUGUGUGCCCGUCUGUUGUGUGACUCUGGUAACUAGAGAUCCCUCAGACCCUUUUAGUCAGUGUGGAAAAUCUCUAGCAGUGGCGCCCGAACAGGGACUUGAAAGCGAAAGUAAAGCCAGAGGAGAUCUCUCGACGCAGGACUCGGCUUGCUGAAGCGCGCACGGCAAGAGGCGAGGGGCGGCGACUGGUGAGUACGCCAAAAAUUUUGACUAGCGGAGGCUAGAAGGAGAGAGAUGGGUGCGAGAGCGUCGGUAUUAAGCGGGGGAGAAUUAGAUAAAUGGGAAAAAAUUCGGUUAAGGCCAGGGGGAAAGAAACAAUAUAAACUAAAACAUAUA

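Randomly mutated transcripts starting with one, two or three G (1G, 2G, 3G), capped or uncapped, were folded for 30 min at 37 °C. High salt was 300 mM KCl and 5 mM MgCl2, low salt 40 mM KCl and 0.1 mM MgCl2; monomer and dimer were parted on a native gel. Each band was probed in the gel with DMS (170 mM, 15 min, 37 °C), with ethanol as control, and sequenced.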

Values are winsor-normalised DMS reactivities of A and C; higher means more reactive, usually unpaired. One numbering serves 1G, 2G and 3G. A position is written with its base.

| position | 3G uncapped low-salt dimer | 3G uncapped low-salt monomer |
|---|---|---|
| A399 | 0.21 | 0.21 |
| C402 | 0.08 | 0.04 |
| C403 | 0.05 | 0.04 |
| A404 | 0.31 | 0.26 |
| A410 | 0.42 | 0.42 |
| A411 | 0.93 | 0.81 |
| A412 | 0.56 | 0.46 |
| A414 | 0.49 | 0.43 |
| A415 | 0.23 | 0.19 |
| A416 | 0.47 | 0.41 |
| C417 | 0.54 | 0.77 |
| A418 | 0.50 | 0.61 |
| A419 | 0.42 | 0.43 |
| A421 | 0.40 | 0.34 |
| A423 | 0.44 | 0.37 |
| A424 | 0.31 | 0.30 |
| A425 | 0.50 | 0.48 |
| C426 | 0.45 | 0.69 |
| A428 | 0.14 | 0.11 |
| A429 | 0.84 | 0.67 |
| A430 | 0.53 | 0.50 |
| A431 | 0.63 | 0.55 |
| C432 | 0.53 | 0.83 |
| A433 | 0.60 | 0.69 |
| A435 | 0.43 | 0.48 |
| A437 | 0.05 | 0.03 |

Excerpt, the final 3 entries:

position,3G uncapped low-salt dimer,3G uncapped low-salt monomer
A433,0.60,0.69
A435,0.43,0.48
A437,0.05,0.03